Pooled drug test results. Numbers come from NIAID ChemDB, via PubChem.

Shared fields: growth or infection tests; organism: HIV-1; endpoint: EC50

ECn is the concentration giving n% inhibition of infection, replication or growth.

compound | strain | changes | cells | read by | conditions | result
CC(=O)O[C@@]12C[C@@H](C)[C@@]3(O)[C@@H](C=C(CO)C[C@]4(O)C(=O)C(C)=C[C@@H]34)[C@@H]1C2(C)C | NL4-3 | gp41 (36G) fusion inhibitor resistant (V38A N42T) | C8166 | p24 / ELISA | - | >10 µM
CCCCCCCCCCCCCC(=O)OC[C@H](COP(=O)(O)OC[C@@H]1CC[C@H](n2cnc3c(=O)[nH]c(N)nc32)O1)OC(=O)CCCCCCCCCCCCC | LAV-Bru | - | CEM13 + CEM | ELISA | - | <10 µM
Nc1nc(=O)n([C@H]2C=C[C@@H](CO)S2)cc1F | IIIB | - | HeLa + HELA CD4+ | - | - | <50 µM
O=c1[nH]cnc2c1ncn2[C@H]1CC[C@@H](CO)O1 | HXB2(184) (RT-M184V) | RT-M184V | HT4 + HT4 LacZ-1 | plaque count | - | 3.54 µM
Cc1c[nH]c(=O)[nH]c1=O | IIIB | - | MOLT4 + MOLT-4 | p24 | - | >4000 µM
COc1oc([C@H]2C/C(=C/C(C)=C/c3ccc(C(F)(F)F)cc3Cl)CO2)c(C)c(=O)c1C | LAI | - | PBMC + LC5-RIC | fluorescence | - | 0.0224 µM
NC(=O)C(c1ccccc1)(c1ccccc1)[C@H]1CCCN(CCc2ccc3c(c2)CCO3)C1 | BaL | - | PM1 | p24 | - | 11 µM
Cc1cn([C@H]2C[C@H](N=[N+]=[N-])[C@@H](CO)O2)c(=O)[nH]c1=O | LAI | - | CEM + CEM TK- | RT activity | - | >100 µM
Nc1ccn([C@@H]2C=C[C@H](CO)S2)c(=O)n1 | IIIB | - | HeLa + HELA CD4+ | - | - | 0.8 µM
O=C(CC1(O)C(=O)Nc2ccc(Br)cc21)c1ccccc1Cl | - | K103N | C8166 | p24 / ELISA | - | 184 µM
Cc1ccnc2c1NC(=O)c1cccnc1N2C1CC1 | AZT-resistant (RT D67N K70R T215Y) RTMCY | RT-D67N K70R T215Y | MAGI | β-galactosidase | - | 0.039 µM
Nc1nc(=O)n([C@@H]2C=C[C@H](CO)S2)cc1F | IIIB | - | HeLa + HELA CD4+ | - | - | 0.4 µM
C[C@H](Cn1cnc2c(N)ncnc21)OCP(=O)(O)O | NL4-3 | +Vpx | Primary T lymphocytes | - | - | 6.822 µM
Cc1cn([C@H]2C[C@H](N=[N+]=[N-])[C@@H](CO)O2)c(=O)[nH]c1=O | RF | - | C-344 | cytopathic effect / XTT | - | 0.25 µM
COc1ccccc1C(=O)CC1(O)C(=O)Nc2ccc(Cl)cc21 | IIIB | - | C8166 | cytopathic effect / syncytia | - | 0.09 µM
O=[N+]([O-])c1ccccc1S(=O)(=O)c1ccccc1 | BaL | - | PBMC (monocytes/macrophages) + PBMC | - | - | 2.78 µM
Nc1ccn([C@H]2CC[C@@H](CO)O2)c(=O)n1 | LAV-Bru | - | CEM13 + CEM | ELISA | - | <10 µM
O=C(CC1(O)C(=O)Nc2ccc(Br)cc21)c1ccc(F)cc1 | IIIB | - | C8166 | cytopathic effect / syncytia | - | 45.47 µM
Cc1cn([C@H]2CC[C@H](O)[C@H]2CO)c(=O)[nH]c1=O | - | - | CEM + CEM/0 | - | - | 10 µM
COc1oc([C@H]2C/C(=C/C(C)=C/c3ccc(Oc4ccccc4)cc3)CO2)c(C)c(=O)c1C | LAI | - | PBMC + LC5-RIC | fluorescence | - | 0.0417 µM
Cc1cc(C)cc(C(=O)c2cc(Cl)ccc2OCCN2C(=O)NC(=O)C(C)C2C)c1 | - | Y181C | - | RT activity | pseudotyped | 0.6 µM
O=C(CC1(O)C(=O)Nc2ccc(Br)cc21)c1ccccc1 | - | K103N | C8166 | p24 / ELISA | - | 132 µM
Cc1cccc2c1OP(=O)(OC[C@H]1C[C@@H](n3cc(C)c(=O)[nH]c3=O)C[C@@H]1O)OC2 | - | - | CEM + CEM/0 | - | - | 0.65 µM
COc1c(O)c(I)c2c(c1OC)-c1c(c(I)c(O)c(OC)c1OC)C[C@H](C)[C@H](C)C2 | IIIB | - | SupT1 + Sup-T1 | syncytia | - | 0.16 µM
CC(C)OC(=O)OCOP(=O)(CO[C@H](C)Cn1cnc2c(N)ncnc21)OCOC(=O)OC(C)C | G691-2 AZT-resistant (RT D67N K70R T215Y K219Q) | RT-D67N K70R T215Y K219Q | MT-2 | p24 | - | 0.003 µM
C=CCN(C(=O)OCc1ccc([N+](=O)[O-])cc1)C1CCN(CCC(Cn2c(CC)nc3ccccc32)c2ccccc2)CC1 | BaL | - | MAGI + MAGI-CCR5 | β-galactosidase | - | <3 µM
Cc1nnc(C(=O)NC(C)(C)c2nc(C(=O)NCc3ccc(F)cc3)c(O)c(=O)n2C)o1 | NL4-3 | - | ACH2 + TZM-bl | luciferase | - | 0.00018 µM
Cc1cn([C@@H]2C[C@H](CO)[C@@H](O)C2)c(=O)[nH]c1=O | - | - | CEM + CEM/0 | - | - | 0.5 µM
CC(C)(C)NC(=O)[C@H]1N(C(=O)[C@@H](O)[C@H](Cc2ccccc2)NC(=O)[C@H](CC(N)=O)NC(=O)COc2cccc3ccccc23)CSC1(C)C | AZT-sens | - | PBMC(PHA STIM.) + PBMC | p24 | - | 0.13 µM
COc1oc([C@H]2C/C(=C/C(C)=C/c3ccccc3Cl)CO2)c(C)c(=O)c1C | LAI | - | PBMC + LC5-RIC | fluorescence | - | 0.561 µM
Nc1ccn([C@H]2CC[C@@H](CO)S2)c(=O)n1 | IIIB | - | HeLa + HELA CD4+ | - | - | 38 µM
CC(C)OC(=O)OCOP(=O)(CO[C@H](C)Cn1cnc2c(N)ncnc21)OCOC(=O)OC(C)C | NL4-3 | M184V | TZM-gfp | GFP | - | 0.57 µM
Cc1cn([C@H]2C[C@H](N=[N+]=[N-])[C@@H](CO)O2)c(=O)[nH]c1=O | IIIB | - | C8166 | cytopathic effect / syncytia | - | 0.0071 µM
COc1oc([C@H]2C/C(=C/C(C)=C/c3ccc(S(C)(=O)=O)cc3)CO2)c(C)c(=O)c1C | LAI | - | PBMC + LC5-RIC | fluorescence | - | 0.9593 µM
Cc1cn([C@H]2C[C@H](N=[N+]=[N-])[C@@H](CO)O2)c(=O)[nH]c1=O | SF162 | - | ACH2 + TZM-bl | luciferase | - | 0.00138 µM
Cc1cn([C@H]2C=C[C@@H](CO)O2)c(=O)[nH]c1=O | NL4-3 | +Vpx | Primary T lymphocytes | - | - | >5 µM
COc1oc([C@H]2C/C(=C/C(C)=C/c3ccc(C(=O)O)cc3)CO2)c(C)c(=O)c1C | LAI | - | PBMC + LC5-RIC | fluorescence | - | 10.8 µM
C=CCN(C(=O)OCc1ccc([N+](=O)[O-])cc1)C1CCN(CCC(C)(Cn2cnc3ccccc32)c2ccccc2)CC1 | BaL | - | MAGI + MAGI-CCR5 | β-galactosidase | - | <1 µM
Nc1ncc2[nH]cnc2n1 | IIIB | - | MOLT4 + MOLT-4 | p24 | - | >612 µM
Cc1c(Sc2ccccc2)n(COCCO)c(=O)[nH]c1=O | BaL | - | PB macrophages (day 12) + Macrophage | p24 | - | 1 µM
Nc1ccn([C@H]2CC[C@@H](CO)O2)c(=O)n1 | NL4-3 | - | Primary T lymphocytes | - | - | 0.081 µM
C=CCSS/C=C/CS(=O)CC=C | - | - | CEM13 + CEM | - | - | 5 µM
Cc1cn([C@@H]2C[C@@H](N=[N+]=[N-])[C@H](COP(N)(=O)OC[C@H]3O[C@@H](n4cc(C)c(=O)[nH]c4=O)C[C@@H]3N=[N+]=[N-])O2)c(=O)[nH]c1=O | LAI | - | CEM + CEM TK- | RT activity | - | >100 µM
Cc1cn([C@H]2C[C@H](CO)[C@@H](O)C2)c(=O)[nH]c1=O | - | - | CEM + CEM/0 | - | - | 3.83 µM
COc1c(O)c(Br)c2c(c1OC)-c1c(c(Br)c(O)c(OC)c1OC)C[C@H](C)[C@H](C)C2 | IIIB | - | SupT1 + Sup-T1 | syncytia | - | 0.39 µM
COC(=O)c1cc2c(c(OC)c1-c1ccc(N(C)C)cc1)OCO2 | NL4-3 | V108I | C8166 | antigen | - | 13.01 µM
Cc1cn([C@H]2C[C@H](N=[N+]=[N-])[C@@H](CO)O2)c(=O)[nH]c1=O | - | - | HeLa + HELA CD4+ | syncytia | - | <0.001 µg/mL
Nc1ncnc2c1ncn2CCOCP(=O)(O)O | - | - | CEM + CEM/0 | syncytia | - | 7 µM
CCCC(=O)O[C@H]1CN2CC[C@H](O)[C@@H]2[C@@H](O)[C@@H]1O | - | - | HeLa + HELA CD4+ | syncytia | - | <0.32 µg/mL
COc1oc([C@H]2C/C(=C/C(C)=C/c3ccc(OC(C)=O)cc3)CO2)c(C)c(=O)c1C | LAI | - | PBMC + LC5-RIC | fluorescence | - | 0.0749 µM
O=C1CCN(CCOc2ccc(Cl)cc2C(=O)c2cc(Cl)cc(Cl)c2)C(=O)N1 | - | K103N | - | RT activity | pseudotyped | 3.1 µM
Nc1ncnc2nc[nH]c12 | IIIB | - | MOLT4 + MOLT-4 | p24 | - | >254 µM
CCCCCCCCCCCCCC(=O)OC[C@@H](COP(=O)(O)OC[C@@H]1CC[C@H](n2ccc(N)nc2=O)O1)OC(=O)CCCCCCCCCCCCC | LAV-Bru | - | CEM13 + CEM | ELISA | - | <10 µM

Repeating the final 7 entries:

compound	strain	changes	cells	read by	conditions	result
Cc1cn([C@H]2C[C@H](N=[N+]=[N-])[C@@H](CO)O2)c(=O)[nH]c1=O	-	-	HeLa + HELA CD4+	syncytia	-	<0.001 µg/mL
Nc1ncnc2c1ncn2CCOCP(=O)(O)O	-	-	CEM + CEM/0	syncytia	-	7 µM
CCCC(=O)O[C@H]1CN2CC[C@H](O)[C@@H]2[C@@H](O)[C@@H]1O	-	-	HeLa + HELA CD4+	syncytia	-	<0.32 µg/mL
COc1oc([C@H]2C/C(=C/C(C)=C/c3ccc(OC(C)=O)cc3)CO2)c(C)c(=O)c1C	LAI	-	PBMC + LC5-RIC	fluorescence	-	0.0749 µM
O=C1CCN(CCOc2ccc(Cl)cc2C(=O)c2cc(Cl)cc(Cl)c2)C(=O)N1	-	K103N	-	RT activity	pseudotyped	3.1 µM
Nc1ncnc2nc[nH]c12	IIIB	-	MOLT4 + MOLT-4	p24	-	>254 µM
CCCCCCCCCCCCCC(=O)OC[C@@H](COP(=O)(O)OC[C@@H]1CC[C@H](n2ccc(N)nc2=O)O1)OC(=O)CCCCCCCCCCCCC	LAV-Bru	-	CEM13 + CEM	ELISA	-	<10 µM

Rows are shuffled and stem from different studies. An empty or dashed field is not shown.